Pooled drug test results. Numbers come from NIAID ChemDB, via PubChem.

Shared fields: tests in culture; organism: Candida albicans

Lines come from different laboratories, so protocols vary. MIC50, MIC90 and the like: level of inhibition, or share of isolates inhibited. Two numbers with a dash give a range or band. Blank or dashed fields: not listed here. Zone: diameter of growth inhibition. ECn: concentration that inhibits the pathogen or its effect by n%. Inhibition is in % at the dose shown (toxicity tests: loss of growth or viability).

SMILES,read by,tested at,strain,changes,measure,setting,value
Cc1c(CN2CCN(C)CC2)cc(-c2ccc(Cl)cc2)n1-c1ccccc1,,,20 strains,,Mean MIC,,64.4 µg/mL
COc1ccc(-c2oc3ccc(C)cc3c2C(=O)c2cccc(OC)c2OC)cc1,broth dilution,,,,EC80,,>200 µg/mL
Cc1ccc(-n2cc(C(C)(C)O)nn2)cc1C,broth dilution,2048 µg/mL,URM 3719,,inhibition,,0%
C[C@@H](c1ncncc1F)[C@](O)(Cn1cncn1)c1ccc(F)cc1F,broth dilution,,10 isolates,,EC90,pH 5,1 µg/mL
CCCCn1cc[n+](COCCCCOC[n+]2ccn(CCCC)c2)c1,agar diffusion,,ATCC 90028,,MIC100,,173 µM
Cc1c(CNc2ccccc2)cc(-c2ccc(Cl)cc2)n1-c1ccc(Cl)cc1Cl,,,20 strains,,Mean MIC,,>200 µg/mL
Nc1ncccc1-c1cc(Cc2ccc(COc3ccccn3)cc2)no1,broth dilution,,IFM49971,,MIC50,90% human serum,0.5 µg/mL
CCC(C)CCCCCCCCCCC(=O)N[C@H]1C[C@@H](O)[C@@H](OC)NC(=O)C2[C@@H](O)[C@@H](C)CN2C(=O)C(CO)NC(=O)C([C@H](O)C(O)c2ccc(O)cc2)NC(=O)NC(=O)[C@@H]2C[C@@H](O)CN2C(=O)[C@H]([C@@H](C)O)NC1=O,agar,1 mg/mL,IV,,zone,,25 mm
Cc1ccc(-c2ccccc2)n1-c1ccccc1,,,20 strains,,Mean MIC,,>200 µg/mL
CCC(C)CCCCCCCCCCC(=O)N[C@H]1C[C@@H](O)[C@@H](O)NC(=O)C2[C@@H](O)[C@@H](C)CN2C(=O)C(CO)NC(=O)C([C@H](O)C(O)c2ccc(O)cc2)NC(=O)NC(=O)[C@@H]2C[C@@H](O)CN2C(=O)[C@H]([C@@H](C)O)NC1=O,agar,0.01 mg/mL,IV,,zone,,24 mm
Cc1ccc(-c2ccccc2)n1-c1ccc(Cl)cc1Cl,,,20 strains,,Mean MIC,,>200 µg/mL
NCCCC[C@H](NC(=O)[C@H](Cc1c[nH]c2ccccc12)NC(=O)[C@H](CCCCN)NC(=O)[C@@H](N)CCCCN)C(=O)O,,12.5 µM,ATCC 10231,,inhibition,,0%
CC(O)Cc1ccc(Cn2cc(CN3CCN([C@H](C)[C@](O)(Cn4cncn4)c4ccc(F)cc4F)CC3)c3ccccc32)cc1,resazurin,,ATCC MYA-1003,,MIC80,,>128 µg/mL
Cc1c(CN2CCN(C)CC2)cc(-c2ccc(Cl)cc2)n1-c1ccc(F)cc1,,,20 strains,,Mean MIC,,45.3 µg/mL
CC[C@@H]([C@H](C)O)n1ncn(-c2ccc(N3CCN(c4ccc(OC[C@@H]5CO[C@@](Cn6cncn6)(c6ccc(F)cc6F)C5)cc4)CC3)cc2)c1=O,broth dilution,,10 isolates,,EC90,pH 5,0.25 µg/mL
Oc1ccc2c(c1)CCc1ccc(O)c(c1)Oc1ccc(cc1)CCc1cccc(O)c1O2,broth dilution,,YEM30,,MIC80,,16 µg/mL
Cc1c(CN2CCCC2)cc(-c2ccc(Cl)cc2)n1-c1ccc(F)cc1,,,20 strains,,Mean MIC,,107.2 µg/mL
CCCCCCCCCCn1cc[n+](COCCCOC[n+]2ccn(CCCCCCCCCC)c2)c1,agar diffusion,,ATCC 90028,,MIC100,,8 µM
CCC(C)CCCCCCCCCCC(=O)N[C@H]1C[C@@H](O)[C@@H](Sc2ccccc2)NC(=O)C2[C@@H](O)[C@@H](C)CN2C(=O)C(CO)NC(=O)C([C@H](O)C(Sc2ccccc2)c2ccc(O)cc2)NC(=O)NC(=O)[C@@H]2C[C@@H](O)CN2C(=O)[C@H]([C@@H](C)O)NC1=O,agar,2 mg/mL,IV,,zone,,15 mm
CC(C)(O)c1cn(-c2ccc3ccccc3c2)nn1,broth dilution,2048 µg/mL,URM 3716,,inhibition,,0%
CCC(C)CCCCCCCCCCC(=O)N[C@H]1C[C@@H](O)[C@@H](NCCN2CCOCC2)NC(=O)C2[C@@H](O)[C@@H](C)CN2C(=O)C(CO)NC(=O)C([C@H](O)C(O)c2ccc(O)cc2)NC(=O)NC(=O)[C@@H]2C[C@@H](O)CN2C(=O)[C@H]([C@@H](C)O)NC1=O,agar,5 mg/mL,IV,,zone,,16 mm
COc1ccc(-c2oc3ccc(C)cc3c2C(=O)c2ccc(O)c(C)c2)cc1,broth dilution,,,,EC80,,>200 µg/mL
C[C@H]1[C@H](O)[C@@H](C)/C=C/C=C/C=C/C=C/C=C/C=C/C=C/[C@H](O[C@@H]2O[C@H](C)[C@@H](O)[C@H](N)[C@@H]2O)C[C@@H]2O[C@](O)(C[C@@H](O)C[C@@H](O)CC[C@H](O)[C@@H](O)C[C@@H](O)CC(=O)O[C@H]1C)C[C@H](O)[C@H]2C(=O)O,broth dilution,1 µg/mL,ATCC 90028,cph1,inhibition,,100%
CCCCCOc1ccc(-c2cc(-c3ccc(C(=O)N[C@H]4C[C@@H](O)[C@@H](O)NC(=O)[C@@H]5[C@@H](O)[C@@H](C)CN5C(=O)[C@H]([C@H](O)CC(N)=O)NC(=O)[C@H]([C@H](O)[C@@H](O)c5ccc(O)c(OS(=O)(=O)O)c5)NC(=O)[C@@H]5C[C@@H](O)CN5C(=O)[C@H]([C@@H](C)O)NC4=O)cc3)no2)cc1,,,Fluconazole-resistant 4 isolates pooled,,MFC90,,0.5 µg/mL
Cc1ccc(C(C)C)cc1O,,,M1,,MLC,,0.32 µg/mL
C[C@@H](N1CCN(Cc2cn(Cc3ccc(F)cc3)c3ccccc23)CC1)[C@](O)(Cn1cncn1)c1ccc(F)cc1F,resazurin,,ATCC 36082,,MIC80,,8 µg/mL
CC1(C)O[C@H]2[C@H](O)[C@@H](N=[N+]=[N-])C=C(c3ccc(C=O)cc3)[C@H]2O1,broth dilution / turbidity,62.5 µg/mL,ATCC 10231,,inhibition,,89.76%
Cc1cc(CN(C)C)c(C)n1-c1ccccc1,,,20 strains,,Mean MIC,,>200 µg/mL
CC[C@@H]([C@H](C)O)n1ncn(-c2ccc(N3CCN(c4ccc(OC[C@@H]5CO[C@@](Cn6cncn6)(c6ccc(F)cc6F)C5)cc4)CC3)cc2)c1=O,,,13 isolates fluconazole-resistant,,Geometric mean MIC,,1.45 µg/mL
CCCCCSc1nc2ccc(N)cc2s1,turbidity,,10 strains,,EC30,,40–80 µM
C[C@@H](N1CCN(Cc2cn(Cc3ccc(F)cc3F)c3c(Cl)cccc23)CC1)[C@](O)(Cn1cncn1)c1ccc(F)cc1F,resazurin,,ATCC 36082,,MIC80,,0.125 µg/mL
COC(=O)[C@H]1[C@@H]2C[C@@H](O[C@@H]3O[C@H](C)[C@@H](O)[C@H](N)[C@@H]3O)/C=C/C=C/C=C/C=C/C=C/C=C/C=C/[C@H](C)[C@@H](O)[C@H](C)[C@H](C)OC(=O)C[C@H](O)C[C@H](O)[C@@H](O)CC[C@H](O)C[C@H](O)C[C@](O)(C[C@@H]1O)O2,broth dilution,,15 isolates,,EC90,pH 7,0.5 µg/mL
Cc1ccc(-c2ccc(Cl)cc2)n1-c1ccc([N+](=O)[O-])cc1,,,20 strains,,Mean MIC,,>200 µg/mL
COc1ccc(-c2oc3ccc(C)cc3c2C(=O)c2cccc(OC)c2O)cc1,broth dilution,,,,EC80,,>200 µg/mL
CCCCCCCCCCCCCCCCn1cc[n+](COCCCCOC[n+]2ccn(CCCCCCCCCCCCCCCC)c2)c1,agar diffusion,,ATCC 90028,,MIC100,,104 µM
S=C(S)n1nnc2ccccc21,broth dilution / absorbance,,MTCC 183,,EC50,48 h,>50 µg/mL
CCCCCCCCCCCCCCCCn1cc[n+](COCCCCCOC[n+]2ccn(CCCCCCCCCCCCCCCC)c2)c1,agar diffusion,,ATCC 90028,,MIC100,,102 µM
COc1ccc(-c2oc3ccc(C)cc3c2C(=O)c2cc(OC)c(OC)c(OC)c2)cc1,broth dilution,,,,EC80,,>200 µg/mL
C[C@@H](N1CCN(Cc2cn(Cc3cccc(C(F)(F)F)c3)c3ccccc23)CC1)[C@](O)(Cn1cncn1)c1ccc(F)cc1F,resazurin,,ATCC 36082,,MIC80,,0.125 µg/mL
COc1ccc(-c2oc3ccc(C)cc3c2C(=O)c2ccccc2Br)cc1,broth dilution,,,,EC80,,>200 µg/mL
Nc1[nH]c(=O)ncc1F,broth dilution,,15 isolates,,EC90,pH 6,0.5 µg/mL
CCCCCOc1ccc(-c2cc(-c3ccc(C(=O)N[C@H]4C[C@@H](O)[C@@H](O)NC(=O)[C@@H]5[C@@H](O)[C@@H](C)CN5C(=O)[C@H]([C@H](O)CC(N)=O)NC(=O)[C@H]([C@H](O)[C@@H](O)c5ccc(O)c(OS(=O)(=O)O)c5)NC(=O)[C@@H]5C[C@@H](O)CN5C(=O)[C@H]([C@@H](C)O)NC4=O)cc3)no2)cc1,broth dilution,,,,MIC50,,0.016 µg/mL
CC(C)N=C(N)c1ccc2nc(-c3ccc4c(c3)Cc3cc(-c5nc6ccc(C(N)=NC(C)C)cc6[nH]5)ccc3-4)[nH]c2c1,,,Isolate CA2601 fluconazole-resistant,,MFC,,1.56 µg/mL
CCCCCCCn1cc[n+](COCCCCCOC[n+]2ccn(CCCCCCC)c2)c1,agar diffusion,,ATCC 90028,,MIC100,,94 µM
CC(C)(O)c1cn(-c2cccc3ccccc23)nn1,broth dilution,2048 µg/mL,URM 4386,,inhibition,,0%
CCCCCn1cc[n+](COCCOC[n+]2ccn(CCCCC)c2)c1,agar diffusion,,ATCC 90028,,MIC100,,712 µM
C=CCc1ccc(OC)c(OC)c1,turbidity,,2781,,MIC90,,345 µg/mL
C=CCSS(=O)CC=C,broth dilution,,Clinical Isolate 3071,,MIC50,,1.56 µg/mL
OC(Cn1cncn1)(Cn1cncn1)c1ccc(F)cc1F,,,TIMM3317 (azole-resistant),,MIC80,,>256 µg/mL

Again, the opening 7 rows:

SMILES,read by,tested at,strain,changes,measure,setting,value
Cc1c(CN2CCN(C)CC2)cc(-c2ccc(Cl)cc2)n1-c1ccccc1,,,20 strains,,Mean MIC,,64.4 µg/mL
COc1ccc(-c2oc3ccc(C)cc3c2C(=O)c2cccc(OC)c2OC)cc1,broth dilution,,,,EC80,,>200 µg/mL
Cc1ccc(-n2cc(C(C)(C)O)nn2)cc1C,broth dilution,2048 µg/mL,URM 3719,,inhibition,,0%
C[C@@H](c1ncncc1F)[C@](O)(Cn1cncn1)c1ccc(F)cc1F,broth dilution,,10 isolates,,EC90,pH 5,1 µg/mL
CCCCn1cc[n+](COCCCCOC[n+]2ccn(CCCC)c2)c1,agar diffusion,,ATCC 90028,,MIC100,,173 µM
Cc1c(CNc2ccccc2)cc(-c2ccc(Cl)cc2)n1-c1ccc(Cl)cc1Cl,,,20 strains,,Mean MIC,,>200 µg/mL
Nc1ncccc1-c1cc(Cc2ccc(COc3ccccn3)cc2)no1,broth dilution,,IFM49971,,MIC50,90% human serum,0.5 µg/mL